These results are taken from ChEMBL document CHEMBL4819148, “Anti-protozoal and anti-fungal evaluation of 3,5-disubstituted 1,2-dioxolanes” (Bioorg Med Chem Lett, 2021).

One data set has as its system Aspergillus fumigatus. The experiment in a line: Antifungal activity against Aspergillus fumigatus ASFU76 assessed as reduction in fungal growth after.
The test system of a further data set is Plasmodium falciparum. As to the kind of experiment: Antimalarial activity against Plasmodium falciparum 3D7 assessed as inhibition of parasite growth.
Data set [1] relates to Leishmania donovani. The experiment in a line: Antileishmanial activity against axenic amastigote form of Leishmania donovani LV9 assessed as reduction in parasite growth.
The nature of data set [2]: Selectivity index, ratio of CC50 for cytotoxicity against HUVEC cells to IC50 for antileishmanial activity against axenic amastigote form of Leishmania donovani LV9. Conditions: human.
A short description of data set [3]: Selectivity index, ratio of CC50 for cytotoxicity against HUVEC cells to IC50 for antiplasmodial activity against Plasmodium falciparum 3D7. Conditions: human.
The subject of the next data set is Candida albicans. The experiment in a line: Antifungal activity against Candida albicans CAAL93 assessed as reduction in fungal growth.
For data set [4], the system named is Leishmania donovani. As to the kind of experiment: Antileishmanial activity against intramacrophage form of Leishmania donovani LV9 assessed as reduction in parasite growth.

Regarding `CCCCCCC1CC(N=[N+]=[N-])OO1` (configuration not stated), the half-inhibitory concentration (IC50) in the data set on Aspergillus fumigatus is above 100 µM; in the data set on Plasmodium falciparum, 0.03 µM; in the data set with Leishmania donovani [1] it was 19.2 µM; in the data set on Candida albicans it was above 100 µM; in the data set on Leishmania donovani [4] it was 37.6 µM. In addition, the results for the Ratio CC50/IC50 in data set [2] and in data set [3] were 0.64 and 405, respectively.
